What all share (type): cell-based
What all share (set-up): key: “—” represents that a sample has no anti-viral activity at a maximal nontoxic dose

The subject of data set [1] is enterovirus EV71 (SZ-98 strain). Put plainly: anti-EV71 activity, therapeutic effect on Vero cell (CPE inhibition, Celltiter Glo). The conditions noted are these: SI = TC50/IC50. The protocol: (§1) Test principle: Vero cell, MRC-5 cell, and RD cell were used as host of virus, respectively, and samples were tested for their inhibition of cytopathic effect (CPE) caused by virus.
(§2) 1. Virus strain: enterovirus EV71 (SZ-98 strain, provided by Chinese Center for Disease Control and Prevention), Vero cell (provided by the Cell Bank of Chinese Academy of Sciences), MRC-5 cell (provided by the Cell Bank of Chinese Academy of Sciences), and RD cell (provided by the Cell Bank of Chinese Academy of Sciences), were subjected to passage culture, respectively, and stored at −80° C.
(§3) 2. Sample treatment: a test sample (Compounds 1-14 and positive control agent) was dissolved in dimethyl sulfoxide (DMSO) to prepare a stock solution, which was stored at −20° C. The stock solution was diluted with DMEM medium (Gibco Company) containing 2% fetal bovine serum (Gibco Company) to prepare a 100 μM solution before use, and was 3-fold diluted with the medium to obtain 8 diluted concentrates.
(§4) 3. Positive control agent: Con1 (pitstop2) (purchased from AmyJet Scientific Inc., Abcam), a broad-spectrum antiviral inhibitor.
(§5) 4. Test method: • 4.1 Therapeutic effect: the cells were seeded on a 96-well culture plate, and cultured in a 5% CO2, 37° C. incubator for 24 h. About 100 TCID50 enterovirus EV71 was added to each well. After adsorption at 37° C. for 1 h, the virus solution was discarded, and a drug was added at different diluted concentrates, respectively. Meanwhile, virus control and cell control were set, and cultured at 37° C. […] The virus-inhibition rate of a sample at each concentration was calculated based on the chemiluminescent value, the sample concentration was used as abscissa, and the inhibition rate was used as ordinate, and S-Curve fitting was performed by using Origin software. Half maximal inhibitory concentration (IC50) of each sample for enterovirus EV71 was calculated based on the fitting results. Median toxic concentration (TC50) was determined by the same method. […] To each well, a drug was added at a different diluted concentration, then the cells were cultured at 37° C. for 2 h, and then the drug was discarded. About 100 TCID50 enterovirus EV71 was added to each well, adsorbed at 37° C. for 1.5 h, then the virus solution was discarded, and a maintenance medium free of drug was added. Meanwhile, virus control and cell control were set, and cultured at 37° C. […] The virus-inhibition rate of a sample at each concentration was calculated, and half maximal inhibitory concentration (IC50), median toxic concentration (TC50), and selection index (SI) of each sample for enterovirus EV71 were calculated. The methods for determining and calculating them were as described in Item 4.1

The test system is the same in data set [2]. Put plainly: anti-EV71 activity, therapeutic effect on MRC-5 cell (CPE inhibition, Celltiter Glo). The conditions noted are these: SI = TC50/IC50. The protocol: as §1, §2, §3, §4, §5
In general terms: Cellular ATP, detected with luciferase, serves as a proxy for viable cell number.

Data set [3] has the same test system. Put plainly: anti-EV71 activity, preventive effect on Vero cell (CPE inhibition). The conditions noted are these: SI = TC50/IC50. The protocol: as §1, §2, §3, §4, §5
Data set [4] shares this test system. Put plainly: anti-EV71 activity, therapeutic effect on RD cell (CPE inhibition, Celltiter Glo). The protocol:
as §1, §2, §3, §4, §5

The test system is the same in data set [5]. Put plainly: anti-EV71 activity, preventive effect on RD cell (CPE inhibition). The conditions noted are these: SI = TC50/IC50. The protocol: as §1, §2, §3, §4, §5

For `O=C1N=C(NS(=O)(=O)c2cccc3ccccc23)S/C1=C\c1ccc(Cl)cc1Cl` [Compound 1, Naphthalene-1-sulfonic acid [5-(2,4-dichloro-benzylidene)-4-oxo-4,5-dihydro-thiazol-2-yl] amide], the SI in data set [1] is recorded as 1.44; in data set [2], “—”; in data set [3], “—”; in data set [4] (SI = TC50/IC50) it was “—”; in data set [5], “—”.

With `COc1cc(/C=C2\SC(NS(=O)(=O)c3cccc4ccccc34)=NC2=O)ccc1O` [Compound 2, Naphthalene-1-sulfonic acid [5-(3-methoxy-4-hydroxy-benzylidene)-4-oxo-4,5-dihydro-thiazol-2-yl] amide], the SI entry in data set [1], in data set [2], in data set [3], in data set [4] (SI = TC50/IC50) and in data set [5] was “—” each time.

Regarding `CCN(CC)c1ccc(/C=C2\SC(NS(=O)(=O)c3cccc4ccccc34)=NC2=O)c(O)c1` [Compound 3, Naphthalene-1-sulfonic acid [5-(2-hydroxy-4-diethylamino-benzylidene)-4-oxo-4,5-dihydro-thiazol-2-yl] amide], the SI in data set [1] is given as 2.50; in data set [2], “—”; in data set [3], “—”; in data set [4] (SI = TC50/IC50) it was 1.7; in data set [4] (ratio CC50 / IC50), 1.7; in data set [5] it was “—”.

For the compound `O=C1N=C(NS(=O)(=O)c2cccc3ccccc23)S/C1=C\c1ccc(Cl)cc1` [Compound 4, Naphthalene-1-sulfonic acid [5-(4-chloro-benzylidene)-4-oxo-4,5-dihydro-thiazol-2-yl] amide], the SI entry in data set [1] is “—”; in data set [2], “—”; in data set [3], “—”; in data set [4] (SI = TC50/IC50), 2.2; in data set [4] (ratio CC50 / IC50), 2.2; in data set [5], “—”.

With `O=C1N=C(NS(=O)(=O)c2cccc3ccccc23)S/C1=C\c1ccc(C(=O)O)cc1` [Compound 5, Naphthalene-1-sulfonic acid [5-(4-carboxy-benzylidene)-4-oxo-4,5-dihydro-thiazol-2-yl] amide], the SI result in data set [1] was “—”; in data set [2] it was “—”; in data set [3] it was “—”; in data set [4] (SI = TC50/IC50), 9.0; in data set [5], above 1.0.

For `O=C1N=C(NS(=O)(=O)c2cccc3ccccc23)S/C1=C\c1cccc(O)c1` [Compound 6, Naphthalene-1-sulfonic acid [5-(3-hydroxy-benzylidene)-4-oxo-4,5-dihydro-thiazol-2-yl] amide], the SI result in data set [1] is given as “—”; in data set [2] it was “—”; in data set [3], “—”; in data set [4] (SI = TC50/IC50), 2.5; in data set [5] it was “—”.

In the case of `COc1ccc(/C=C2\SC(NS(=O)(=O)c3cccc4ccccc34)=NC2=O)cc1O` [Compound 7, Naphthalene-1-sulfonic acid [5-(3-hydroxy-4-methoxy-benzylidene)-4-oxo-4,5-dihydro-thiazol-2-yl] amide], the SI result in data set [1], in data set [2], in data set [3], in data set [4] (SI = TC50/IC50) and in data set [5] was “—” each time.

Regarding `O=C1N=C(NS(=O)(=O)c2cccc3ccccc23)S/C1=C\c1ccc(O)c(Br)c1` [Compound 8, Naphthalene-1-sulfonic acid [5-(3-bromo-4-hydroxy-benzylidene)-4-oxo-4,5-dihydro-thiazol-2-yl] amide], the SI result in data set [1] is reported as “—”; in data set [2], “—”; in data set [3], “—”; in data set [4] (SI = TC50/IC50), 3.0; in data set [5], “—”.

For `COc1cccc(OC)c1/C=C1\SC(NS(=O)(=O)c2cccc3ccccc23)=NC1=O` [Compound 9, Naphthalene-1-sulfonic acid [5-(2,6-dimethoxy-benzylidene)-4-oxo-4,5-dihydro-thiazol-2-yl] amide], the SI entry in data set [1], in data set [2], in data set [3], in data set [4] (SI = TC50/IC50) and in data set [5] was “—” each time.

In the case of `O=C1N=C(NS(=O)(=O)c2cccc3ccccc23)S/C1=C\c1ccc(F)cc1Cl` [Compound 10, Naphthalene-1-sulfonic acid [5-(2-chloro-4-fluoro-benzylidene)-4-oxo-4,5-dihydro-thiazol-2-yl] amide], the SI result in data set [1] is “—”; in data set [2], “—”; in data set [3], “—”; in data set [4] (SI = TC50/IC50) it was “—”; in data set [5] it was 3.0.

`O=C1N=C(NS(=O)(=O)c2cccc3ccccc23)S/C1=C\c1ccc(-c2ccccc2)cc1` [Compound 11, Naphthalene-1-sulfonic acid (5-biphenyl-4-yl-methylene-4-oxo-4,5-dihydro-thiazol-2-yl) amide]: the SI entry in data set [1], in data set [2], in data set [3], in data set [4] (SI = TC50/IC50) and in data set [5] was “—” in each case.

For the compound `CC(=O)Nc1ccc(/C=C2\SC(NS(=O)(=O)c3cccc4ccccc34)=NC2=O)cc1` [Compound 12, Naphthalene-1-sulfonic acid [5-(4-acetylamino-benzylidene)-4-oxo-4,5-dihydro-thiazol-2-yl] amide], the SI entry in data set [1], in data set [2], in data set [3], in data set [4] (SI = TC50/IC50) and in data set [5] was “—” throughout.

For the compound `O=C1N=C(NS(=O)(=O)c2cccc3ccccc23)SC1Nc1ccccc1` (centres unmarked) [Compound 13, Naphthalene-1-sulfonic acid (4-oxo-5-phenylamino-4,5-dihydro-thiazol-2-yl) amide], the SI result is “—” in data set [1]; “—” in data set [2]; “—” in data set [3]; “—” in data set [4] (SI = TC50/IC50); 9.0 in data set [5].

Regarding `O=C1N=C(NS(=O)(=O)c2cccc3ccccc23)SC1C(c1ccccc1)c1ccc(Br)cc1` (centres unmarked) [Compound 14, Naphthalene-1-sulfonic acid {5-[(4-bromo-phenyl)-phenyl-methyl]-4-oxo-4,5-dihydro-thiazol-2-yl} amide], the SI in data set [1] is 2.08; in data set [3] it was “—”; in data set [4] (SI = TC50/IC50), 2.5; in data set [5], 1.7.

Consider `O=C1N=C(NS(=O)(=O)c2cccc3ccccc23)S/C1=C\c1ccc(Br)cc1` [Con 1, Naphthalene-1-sulfonic acid [5-(4-bromo-benzylidene)-4-oxo-4,5-dihydro-thiazol-2-yl] amide, reference compound], for which the SI result is on record as “—” in data set [1]; “—” in data set [2]; “—” in data set [3]; 2.5 in data set [4] (SI = TC50/IC50); 2.5 in data set [4] (ratio CC50 / IC50); 2.5 in data set [5].

Values taken from US10611742B2, “4-oxo-4,5-dihydrothiazole derivative, preparation method and use thereof” (Institute of Pharmacology and Toxicology Academy of …, priority 2015, dated 2020).
